Assay results taken from patent US20160089422.

System: P04156

Substance | delay of PrPsc amplification in RT-QuIC
Active recombinant human MSRA (methionine sulfoxide reductase A), ab82728, Abcam | a systematic delay is observed in the vCDJ samples treated with the MSRs
Active recombinant human MSRB2 (methionine sulfoxide reductase B2), ab95916, Abcam | a systematic delay is observed in the vCDJ samples treated with the MSRs
